Among the data in US7129271B2, “Compounds for pest control and methods for their use” (The United States of America as represented by the …, priority 2000, dated 2006) are Slope values, retold here.

The subject of the data set is I. scapularis nymphs. Description: Tick bioassay, modified disposable pipette method, treated vials (Example 9). In kind it is in vivo, Ixodes scapularis. The following applies: 24 h exposure; probit analysis. As for the experimental part:
Tick Colonies. […] There was no known pesticide used at this location. Ticks were maintained at 21° C., 90% RH, and received a 16:8 h (light:dark) cycle as described in […]. Med. […] Tick and Flea Bioassays. […] A control treated with acetone only was run with each series. Tick and flea susceptibility was evaluated using a modified disposable pipette method. See, Barnard, D. R., et al., J. Econ. […] Three to 4 holes were made in the plastic cap to allow for air exchange. Nymphal ticks and adult fleas were then placed directly into the vials using forceps. Vials containing ticks or fleas were placed in desiccators for 24 h at 21° C. and 90% RH. […] For each time point, if ticks were incapable of movement, maintaining normal posture, leg coordination, ability to right themselves, or any signs of life, they were considered moribund or dead.
`C=C(C)[C@@H]1CCC2=CCC[C@@H](C)[C@]2(C)C1` [Compound 5, Valencene] yielded a Slope of 0.684.
As to `C=C(C)C1CC=C2C=CCC(C)C2(C)C1` (stereo not shown) [Compound 6, Nootkatene], the Slope turned out to be 1.763.
On to `C=C(CO)C1CCC2=CCC[C@@H](C)[C@]2(C)C1` (stereo partly shown) [Compound 10, 13-hydroxy-valencene], for which the Slope is recorded as 2.562.
Take `C[C@@H]1CCC=C2CCC(C3(C)CO3)C[C@]21C` (stereo partly shown) [Compound 13, valencene-11,12-epoxide]: the Slope is recorded as 0.571.
As to `C=C(C=O)C1CCC2=CCC[C@@H](C)[C@]2(C)C1` (stereo partly shown) [Compound 15, valencene-13-aldehyde], the Slope was determined as 2.755.
The same measure for `C=C(C)C1CCC23OC2C(=O)C[C@@H](C)[C@]3(C)C1` (stereo partly shown) [Compound 17, nootkatone-1,10-epoxide]: 2.883; for `C[C@@H]1CC(=O)C2OC23CCC(C2(C)CO2)C[C@@]13C` (stereo partly shown) [Compound 18, nootkatone-1,10-11,12-diepoxide]: 2.131.
